Compound potency records, mixed from different reports. Data source: NIAID ChemDB in PubChem.

All rows: whole-cell or culture tests; species: Mycobacterium tuberculosis

An empty or dashed field is not shown. MIC bound: limit read from a one-dose screen. Inhibition is in % at the dose shown (toxicity tests: loss of growth or viability). Conditions beyond the fields shown may differ between rows. a–b is a range or a potency band. MIC50, MIC90 and the like: level of inhibition, or share of isolates inhibited. ECn: concentration that inhibits the pathogen or its effect by n%.

SMILES,method,strain or isolate,tested at,read-out,result
CC1=C(C(=O)Nc2cccc([N+](=O)[O-])c2)C(c2ccccc2)C(C(=O)Nc2cccc([N+](=O)[O-])c2)=C(C)N1,-,H37Rv,2.5 µg/mL,inhibition,94%
COc1ccc(-c2nn(-c3ccc(Cl)cc3)cc2C2CC(c3ccc4c(c3)CCO4)=NN2)cc1,resazurin,H37Rv,-,MIC,50 µg/mL
CCOC(=O)NC(=O)c1cn(CCCOC(=O)CCCCCCCCC(=O)OCCCn2cc(C(=O)NC(=O)OCC)c(=O)[nH]c2=O)c(=O)[nH]c1=O,resazurin,H37Rv,-,MIC bound,>6.25 µg/mL
COc1ccc(-c2nc(NCc3ccccc3)[nH]c(=O)c2C#N)cc1,-,H37Ra,-,MIC,>50 µg/mL
COc1cc(CSc2nc(=O)[nH]c3nc[nH]c23)cc(OC)c1,-,H37Ra,-,MIC,>12.8 µg/mL
CSc1ccc(C2C(C(=O)Nc3cccc([N+](=O)[O-])c3)=C(C)NC(C)=C2C(=O)Nc2cccc([N+](=O)[O-])c2)cc1,-,H37Rv,-,EC50,<2.5 µg/mL
Cc1ccc(C2=NNC(c3cn(-c4ccc(Cl)cc4)nc3-c3ccccc3)C2)o1,resazurin,H37Rv,-,MIC,25 µg/mL
O=C(Cc1csc2nc(-c3ccccc3)cn12)N/N=C/c1ccc([N+](=O)[O-])cc1,-,H37Rv,12.5 µg/mL,inhibition,64%
COc1ccc(OC)c(Sc2nc(Cl)nc3nc[nH]c23)c1.O,-,H37Ra,-,MIC,>12.8 µg/mL
c1ccc(/C(=N/Nc2ccc3ccccc3n2)c2ccccn2)cc1,BACTEC,H37Rv,12.5 µg/mL,inhibition,99%
NNC(=O)c1ccncc1,-,Isolate UT2007 (katG S315T mutation),-,MIC,6 µg/mL
CC1=C(c2c(C)cc(O)c3c2C(=O)C(c2c(O)c4c(C)cccc4oc2=O)=C(c2c(O)c4c(C)cccc4oc2=O)C3=O)C(=O)c2c(O)cccc2C1=O,-,MTCS1,-,MIC,2.44 µg/mL
O=C1CSC(c2ccccc2Cl)N1C(=O)NCCCN1c2ccccc2Sc2ccccc21,agar,H37Rv,50 µg/mL,inhibition,60%
Cc1cc(Cl)cc2c1NC(=O)C2(O)C(C(=O)C1=CCC=C=C1)c1ccccc1,resazurin,H37Rv,-,MIC bound,>6.25 µg/mL
Brc1ccc(-c2nc3sc(-c4ccco4)nn3c2CC2CCOCC2)cc1,BACTEC,H37Rv,6.25 µg/mL,inhibition,<90%
CC(=O)SCC(CO)SC(C)=O,-,H37Rv,-,MIC,0.8 µg/mL
C[C@]12CC([C@]3(O)CC[C@H]4[C@@H]5C[C@H]6O[C@]67[C@@H](O)C=CC(=O)[C@]7(C)[C@H]5CC[C@@]43C)[C@H](C1)OC(=O)[C@]2(C)O,BACTEC,H37Rv,-,MIC bound,>12.5 µg/mL
Cc1ccc(CSc2ncccn2)cc1,-,H37Rv,-,MIC90,>6.25 µg/mL
Oc1ccc(O)c2nc3ccccc3nc12,BACTEC,H37Rv,-,MIC bound,>12.5 µg/mL
NNC(=O)c1ccncc1,-,MTB12 (PZA-R),-,MIC,0.12 µg/mL
CC1=C(C(=O)Nc2cccc([N+](=O)[O-])c2)C(c2ccccc2Cl)C(C(=O)Nc2cccc([N+](=O)[O-])c2)=C(C)N1,-,H37Rv,2.5 µg/mL,inhibition,97%
COc1ccccc1CSc1ncccn1,-,H37Ra,-,MIC,>12.8 µg/mL
O=C1OC(c2ccccc2)=N/C1=C\c1ccc(Cl)cc1Cl,BACTEC,H37Rv,-,MIC bound,>12.5 µg/mL
Cc1cccc(Sc2nc(Cl)nc3nc[nH]c23)c1,-,H37Rv,-,MIC90,>6.25 µg/mL
c1ccc(-c2nc3sc(-c4ccco4)nn3c2CN2CCCC2)cc1,BACTEC,H37Rv,6.25 µg/mL,inhibition,<90%
O=C1OCCOCCOCCOCCOC(=O)c2cccc1n2,BACTEC,H37Rv,12.5 µg/mL,inhibition,-10%
Cc1ccc(-c2nc(NC3CCCCC3)[nH]c(=O)c2C#N)cc1,-,H37Ra,-,MIC,>50 µg/mL
O=C(/N=C/c1ccccc1Br)NCCCN1c2ccccc2Sc2ccccc21,agar,H37Rv,25 µg/mL,inhibition,25%
COc1c2occc2c(OC)c2c(=O)cc(/C=C/c3ccc4ccccc4n3)oc12,BACTEC,H37Rv,-,MIC bound,>12.5 µg/mL
CCCCCCCOc1cccc(NC(=O)OCCN2CCCCC2)c1,-,My 331/88,-,MIC,16 µM
CC1=Nc2ccccc2NC2(C1)C(C1COC(C)(C)O1)OC1OC(C)(C)OC12,BACTEC,H37Rv,12.5 µg/mL,inhibition,-9%
CSc1ccc(C2C(C(=O)Nc3ccc(C)cc3C)=C(C)NC(C)=C2C(=O)Nc2ccc(C)cc2C)cc1,-,H37Rv,2.5 µg/mL,inhibition,59%
O=C(SCC1CS1)C(Cl)Cl,-,H37Rv,-,MIC,25 µg/mL
COc1ccccc1/C=N/NC(=O)Cc1csc2nc(-c3ccccc3)cn12,-,H37Rv,-,EC50,<12.5 µg/mL
O=C1c2ccccc2C(=O)c2sc(Nc3ccc(Cl)c(Cl)c3)nc21,BACTEC,H37Rv,12.5 µg/mL,inhibition,99%
Cc1cc(Cl)[nH]c2ccc3c(=O)c(C(=O)NN=Cc4cc([N+](=O)[O-])ccc4O)cnc3c12,-,H37Rv,-,MIC,500 µg/mL
COc1ccc(-c2nn(-c3ccc(Cl)cc3)cc2C2CC(c3ccc(-c4ccccc4)cc3)=NN2)cc1,resazurin,H37Rv,-,MIC,6.25 µg/mL
OCC(S)CSCC(S)CS,-,H37Rv,-,MIC,25–50 µg/mL
COc1ccc(Sc2ncccn2)cc1,-,H37Rv,-,MIC90,>6.25 µg/mL
COc1ccc(-c2nn(-c3ccc(Cl)cc3)cc2C2CC(c3ccc(C)o3)=NN2)cc1,resazurin,H37Rv,-,MIC,25 µg/mL
Cc1cccc(C)c1Sc1ncnc2nc[nH]c12,-,H37Rv,6.25 µg/mL,inhibition,0%
O=Cc1c(-c2ccccc2)nc2sc(-c3cccs3)nn12,BACTEC,H37Rv,6.25 µg/mL,inhibition,<90%
CCCCCCCCNc1nc(-c2ccc(N(C)C)cc2)c(C#N)c(=O)[nH]1,-,H37Ra,-,MIC,>50 µg/mL
Cc1cc(Cl)[nH]c2ccc3c(=O)c(C(=O)NN4C(=O)C(Cl)C4c4ccccc4)cnc3c12,-,H37Rv,-,MIC,250 µg/mL
COc1cccc(/C=N/C(=O)NCCCN2c3ccccc3Sc3ccccc32)c1,agar,H37Rv,50 µg/mL,inhibition,42%
O=C(Cc1csc2nc(-c3ccccc3)cn12)N/N=C/c1c(Cl)cccc1Cl,-,H37Rv,-,EC50,>12.5 µg/mL
O=C(SCC1CS1)c1ccc(C(=O)SCC2CS2)cc1,-,H37Rv,-,MIC,3.125 µg/mL
CCCCCCCCCCCCCCCc1cc(=O)[nH]c2ccc(C)cc12,BACTEC,H37Rv,6.25 µg/mL,inhibition,0%
CCCNc1nc(-c2cccnc2)c(C#N)c(=O)[nH]1,-,H37Ra,-,MIC,25–50 µg/mL
O=C(Cc1csc2nc(-c3ccccc3)cn12)N/N=C/c1cc(Br)ccc1O,-,H37Rv,12.5 µg/mL,inhibition,0%
CCCCCCOc1ccccc1NC(=O)OC(C)CN1CCCCC1,-,My 331/88,-,MIC,32 µM
CO[C@H]1/C=C/O[C@@]2(C)Oc3c(C)c(O)c4c(=O)c(c5oc6cc(N7CCN(CC(C)C)CC7)cc(=O)c6nc5c4c3=C2O)NC(=O)/C(C)=C\C=C\[C@H](C)[C@H](O)[C@@H](C)[C@@H](O)[C@@H](C)[C@H](OC(C)=O)[C@@H]1C,-,15 (isoniazid-resistant),-,MIC,0.0039 µg/mL
COc1cc(O)c2c(O)c3c(=O)cc(C)oc3cc2c1,-,INH-r,-,MIC,>12.5 µg/mL
O=C1CSC(c2ccc(O)cc2)N1C(=O)NCCCN1c2ccccc2Sc2ccccc21,agar,H37Rv,50 µg/mL,inhibition,70%
Clc1ccc(-n2cc(C3CC(c4ccc(-c5ccccc5)cc4)=NN3)c(-c3cccs3)n2)cc1,resazurin,H37Rv,-,MIC,1.56 µg/mL
NC[C@@H]1O[C@H](O[C@H]2[C@@H](O)[C@H](O[C@@H]3[C@@H](O)[C@H](N)C[C@H](N)[C@H]3O[C@H]3O[C@H](CO)[C@@H](O)[C@H](O)[C@H]3N)O[C@@H]2CO)[C@H](N)[C@@H](O)[C@@H]1O,-,MTB9 (RIF-R),-,MIC,0.75 µg/mL
O=C(CNC(=O)c1ccccc1)SCC1CS1,-,H37Rv,-,MIC,>50 µg/mL
CCCCCCOc1ccc(NC(=O)OCCN2CCCCC2)cc1,-,My 331/88,-,MIC,16 µM
O=C1c2cc3c(-c4ccccc4)oc(-c4ccccc4)c3cc2C(=O)c2c(O)ccc(O)c21,BACTEC,H37Rv,12.5 µg/mL,inhibition,3%
O=C(NCCCN1c2ccccc2Sc2ccccc21)N1C(=O)/C(=C\c2ccc(Cl)cc2)SC1c1ccc(Cl)cc1,agar,H37Rv,25 µg/mL,inhibition,32%
CCCCCCCCNc1nc(-c2ccc(C)cc2)c(C#N)c(=O)[nH]1,-,H37Ra,-,MIC,>50 µg/mL
O=C(/N=C/c1cccc(Br)c1)NCCCN1c2ccccc2Sc2ccccc21,agar,H37Rv,50 µg/mL,inhibition,50%
CC(C)N1CN(C(C(=O)NC2C(=O)N3C2SC(C)(C)C3C(=O)O)c2ccccc2)CSC1=S,BACTEC,H37Rv,-,MIC bound,>12.5 µg/mL
O=C1CSC(c2cccc(O)c2)N1C(=O)NCCCN1c2ccccc2Sc2ccccc21,agar,H37Rv,50 µg/mL,inhibition,70%
O=C1C=C[C@@H](COC2OC(CO)C(O)C(O)C2O)O1,BACTEC,H37Rv,12.5 µg/mL,inhibition,100%
Cc1cc(Cl)[nH]c2ccc3c(=O)c(C(=O)NN4C(=O)C(Cl)C4c4cccc([N+](=O)[O-])c4O)cnc3c12,-,H37Rv,-,MIC,200 µg/mL
O=C(N=Nc1c(O)n(Cc2ccccc2)c2ccccc12)c1ccncc1,-,Human sensitive isolate,-,MIC,3.5 µg/mL
CO[C@H]1/C=C/O[C@@]2(C)Oc3c(C)c(O)c4c(O)c(c5c(c4c3C2=O)NC2(CCN(CC(C)C)CC2)N=5)=NC(=O)/C(C)=C\C=C\[C@H](C)[C@H](O)[C@@H](C)[C@@H](O)[C@@H](C)[C@H](OC(C)=O)[C@@H]1C,-,Strain .9,-,MIC,0.003 µg/mL
N#Cc1c(-c2ccc(F)cc2)nc(NCCN2CCOCC2)[nH]c1=O,-,H37Ra,-,MIC,>50 µg/mL
O=C(CCCl)SCC1CS1,-,H37Rv,-,MIC,6.25 µg/mL
COc1ccccc1C(=O)Nc1ccc(Cl)c(C(=O)OC(C)C)c1,BACTEC,H37Rv,12.5 µg/mL,inhibition,0%
CCCCCOc1ccccc1NC(=O)OCCN1CCCCC1,-,My 331/88,-,MIC,32 µM
Cc1ccc(C)c(Sc2ncnc3nc[nH]c23)c1,-,H37Rv,6.25 µg/mL,inhibition,0%
CC(C)(C)c1ncc(CCCN=C(N)N)[nH]c1=O,BACTEC,H37Rv,12.5 µg/mL,inhibition,99%
COc1ccccc1C1SCC(=O)N1C(=O)NCCCN1c2ccccc2Sc2ccccc21,agar,H37Rv,25 µg/mL,inhibition,30%
Cc1ccc(-c2nc(NC3CCCCCC3)[nH]c(=O)c2C#N)cc1,-,H37Ra,-,MIC,25–50 µg/mL
O=C(Cc1csc2nc(-c3ccccc3)cn12)N/N=C/C=C/c1ccc([N+](=O)[O-])o1,-,H37Rv,12.5 µg/mL,inhibition,87%
O=Cc1c(-c2ccc(Br)cc2)nc2sc(-c3cccs3)nn12,BACTEC,H37Rv,6.25 µg/mL,inhibition,<90%
N#Cc1c(-c2ccc(F)cc2)nc(N2CCOCC2)[nH]c1=O,-,H37Ra,-,MIC,>50 µg/mL
c1ccc(-c2nc3sc(C4CCCCC4)nn3c2CC2CCOCC2)cc1,BACTEC,H37Rv,6.25 µg/mL,inhibition,<90%
CCN(CC)CC1=CC(=Nc2cc(OC)cc3cccnc23)C=CC1=O,BACTEC,H37Rv,12.5 µg/mL,inhibition,-17%
Cc1cc(Cl)[nH]c2ccc3c(=O)c(C(=O)NN4C(=O)C(Cl)C4c4ccccc4O)cnc3c12,-,H37Rv,-,MIC,500 µg/mL
C/C(CC(=O)Nc1ccc(Cl)c(Cl)c1)=N\NC(=O)C[N+](C)(C)C.[Cl-],BACTEC,H37Rv,-,MIC bound,>12.5 µg/mL
O=C(N=Nc1c(O)[nH]c2ccccc12)c1ccncc1,-,Human resistant isolate,-,MIC,2.7 µg/mL
Nc1o[nH]c(=O)c1-c1ccccc1,BACTEC,H37Rv,-,MIC bound,>12.5 µg/mL
NC(=O)c1cnccn1,-,CA516,-,MIC,>900 µg/mL

8 of the rows above, restated:

SMILES,method,strain or isolate,tested at,read-out,result
CC(C)(C)c1ncc(CCCN=C(N)N)[nH]c1=O,BACTEC,H37Rv,12.5 µg/mL,inhibition,99%
OCC(S)CSCC(S)CS,-,H37Rv,-,MIC,25–50 µg/mL
O=C1CSC(c2ccc(O)cc2)N1C(=O)NCCCN1c2ccccc2Sc2ccccc21,agar,H37Rv,50 µg/mL,inhibition,70%
Cc1ccc(-c2nc(NC3CCCCC3)[nH]c(=O)c2C#N)cc1,-,H37Ra,-,MIC,>50 µg/mL
NC[C@@H]1O[C@H](O[C@H]2[C@@H](O)[C@H](O[C@@H]3[C@@H](O)[C@H](N)C[C@H](N)[C@H]3O[C@H]3O[C@H](CO)[C@@H](O)[C@H](O)[C@H]3N)O[C@@H]2CO)[C@H](N)[C@@H](O)[C@@H]1O,-,MTB9 (RIF-R),-,MIC,0.75 µg/mL
COc1ccccc1C1SCC(=O)N1C(=O)NCCCN1c2ccccc2Sc2ccccc21,agar,H37Rv,25 µg/mL,inhibition,30%
N#Cc1c(-c2ccc(F)cc2)nc(NCCN2CCOCC2)[nH]c1=O,-,H37Ra,-,MIC,>50 µg/mL
O=C(Cc1csc2nc(-c3ccccc3)cn12)N/N=C/c1c(Cl)cccc1Cl,-,H37Rv,-,EC50,>12.5 µg/mL